A mixed list of measured activities; the numbers were collected in NIAID ChemDB.

Shared fields: host cell toxicity; cell line: C8166; endpoint: CC50

CCn: concentration that lowers growth or viability of the cells by n%. Lines come from different laboratories, so protocols vary. Blank or dashed fields: not listed here.

| SMILES | method | result |
|---|---|---|
| CC(C)(C)NC(=O)[C@@H]1C[C@@H]2CCCC[C@@H]2CN1C[C@@H](O)[C@H](Cc1ccccc1)NC(=O)[C@H](CC(N)=O)NC(=O)c1ccc2ccccc2n1 |  | 20 µM |
| O=CC1=C(Oc2ccccc2)N2C[C@@H]3CCCN4CCC[C@@H]([C@H]34)[C@H]2CC1 | MTT | 155 µg/mL |
| O=C(/C=C(\O)c1ncn[nH]1)c1ccc(Cc2ccc(F)cc2)o1 | resazurin | 25 µM |
| O=C(O)c1cc(O)c(O)c(O)c1 | MTT | 29.63 µM |
| C=C(CO)[C@@H]1Cc2cc3ccc(=O)oc3cc2O1 | MTT | >200 µM |
| Cc1c([N+](=O)[O-])c(C(N)=O)nn1[C@@H]1O[C@H](CO)[C@@H](O)[C@H]1O |  | >1650 µM |
| CC(C)(C)C(=O)c1sc(C(=O)NCCc2ccccc2)c(O)c1O | resazurin | >12.5 µM |
| Cc1c(N)c(C(N)=O)nn1[C@@H]1O[C@H](CO)[C@@H](O)[C@H]1O |  | 320 µM |
| CC(=O)OC(C1CC(C)C(=O)O1)C(C)C1C2C3(O)OC4(CCC12C)C(=CCC1C(C)(C)OC2CC(=O)OC21C4O)C3=O | MTT | 126.5 µg/mL |
| Cc1cccc(OC2=C(C=O)CC[C@@H]3[C@H]4CCCN5CCC[C@@H](CN23)[C@@H]45)c1 | MTT | 92.6 µg/mL |
| COc1cc2cc3c(cc2oc1=O)OC(C)(C)C=C3 | MTT | >200 µM |
| Cc1ccc(C(C)C)c(O)c1 | XTT | 400 µM |
| Cc1ccc(-c2c[nH]c(=S)n2NC(=S)Nc2ccc(Cl)cc2)cc1 | MTT | 105 µM |
| COC(=O)CCC(C)[C@H]1CCC2C3CC[C@@H]4C[C@H](OC(=O)c5ccccc5)CC[C@]4(C)C3=C(NC(=O)OCc3ccccc3)C(=O)[C@@]21C |  | 100 µM |
| CC1=CCC[C@H]2[C@](C)(CC3=CC(=O)C=CC3=O)[C@@H](C)CC[C@]12C |  | 12.9 µM |
| CC1=C[C@H]([C@H](O)[C@H](C)[C@@H]2C[C@H]3O[C@]34[C@H]3CC[C@@H]5C(C)(C)O[C@H]6CC(=O)O[C@]65C[C@]3(O)CC[C@@]24C)OC1=O |  | >200 µg/mL |
| NC(=O)c1ccn([C@@H]2O[C@H](CO)[C@@H](O)[C@H]2O)n1 |  | 900 µM |
| COC(O)c1cc(O)c(O)c(O)c1 | MTT | 82.79 µM |
| CC(C)=CCc1cc2ccc(=O)oc2c(CC=C(C)C)c1O | MTT | >200 µM |
| COC(=O)CCC(C)[C@H]1CCC2C3CC[C@@H]4C[C@H](OC(=O)c5ccccc5)CC[C@]4(C)C3=C(N)C(=O)[C@@]21C |  | 50 µM |
| CC1=CCCC2C1(C)CCC(C)[C@@]2(C)CC1=CC(=O)C(NC(CC(C)C)C(=O)O)=CC1=O |  | 8.8 µM |
| Cc1ccc(OC2=C(C=O)CC[C@@H]3[C@H]4CCCN5CCC[C@@H](CN23)[C@@H]45)cc1 | MTT | 78.51 µg/mL |
| Cc1ccc(NC(=S)Nn2c(-c3ccc(Br)cc3)c[nH]c2=S)c(C)c1 | MTT | 19.91 µM |
| CC1=CCCC2C1(C)CCC(C)[C@@]2(C)CC1=CC(=O)C(NC(CS(=O)(=O)O)C(=O)O)=CC1=O |  | 22.3 µM |
| O=Cc1ccc(O/C=C2/CC[C@@H]3[C@H]4CCCN5CCC[C@@H](CN3C2=O)[C@@H]45)cc1 | MTT | 98.97 µg/mL |
| Cc1cn([C@H]2C[C@H](N=[N+]=[N-])[C@@H](CO)O2)c(=O)[nH]c1=O |  | <403 µM |
| O=C1CCC[C@@H]2[C@H]3CCCN4CCC[C@@H](CN12)[C@@H]34 | MTT | >200 µg/mL |
| CCCCCn1nnc2c(C)nn([C@@H]3O[C@H](CO)[C@@H](O)[C@H]3O)c2c1=O |  | 280 µM |
| CC(C)(C)c1ccc(OC2=C(C=O)CC[C@@H]3[C@H]4CCCN5CCC[C@@H](CN23)[C@@H]45)cc1 | MTT | >200 µg/mL |
| CC1(C)C=Cc2cc3cc(O)c(=O)oc3cc2O1 | MTT | >200 µM |
| S=C(Nc1ccc(Cl)cc1)Nn1c(-c2ccc(Cl)cc2)c[nH]c1=S | MTT | >200 µM |
| Cc1cn([C@H]2C[C@H](N=[N+]=[N-])[C@@H](CO)O2)c(=O)[nH]c1=O | XTT | >1000 µM |
| O=CC1=C(Oc2ccc3ccccc3c2)N2C[C@@H]3CCCN4CCC[C@@H]([C@H]34)[C@H]2CC1 | MTT | 69.11 µg/mL |
| COc1cc([C@@H]2c3cc(O)c(OC)cc3C[C@@H](CO)[C@@H]2CO)ccc1O | MTT | >200 µM |
| CC1=CCCC2C1(C)CCC(C)[C@@]2(C)CC1=CC(=O)C(NC(CO)C(=O)O)=CC1=O |  | 23.5 µM |
| S=C(Nc1cccc2ccccc12)Nn1c(-c2ccc(Cl)cc2)c[nH]c1=S | MTT | 105 µM |

2 of the rows above, restated:

{"SMILES": "COc1cc([C@@H]2c3cc(O)c(OC)cc3C[C@@H](CO)[C@@H]2CO)ccc1O", "method": "MTT", "result": ">200 µM"}
{"SMILES": "CC1=CCCC2C1(C)CCC(C)[C@@]2(C)CC1=CC(=O)C(NC(CS(=O)(=O)O)C(=O)O)=CC1=O", "result": "22.3 µM"}